Anti-infective test results gathered from many reports (values: NIAID ChemDB through PubChem).

Common to all: growth or infection tests; organism: Mycobacterium avium; measure: MIC

Conditions beyond the fields shown may differ between rows.

{"smiles": "CCCCCCCCCCCCCCCCNC(=S)NCCCC(=O)OC", "strain or isolate": "724", "value": "20 µg/mL"}
{"smiles": "O=C(NCc1ccccc1)c1ccccc1O", "strain or isolate": "ATCC 25291", "conditions": "21 d", "value": "125 µM"}
{"smiles": "Cc1cccc(OC/C(N)=N\\NC(=O)c2ccncc2)c1", "strain or isolate": "ATCC 19421", "value": ">100 µg/mL"}
{"smiles": "CC(=O)Oc1cc(Cl)ccc1C(=O)Nc1ccc(Cl)cc1", "strain or isolate": "MY330/88", "value": "8 µg/mL"}
{"smiles": "CC[C@@H](C)[C@H](NC(=O)OCc1ccccc1)c1cnc(-c2ccc([N+](=O)[O-])cc2)[nH]1", "strain or isolate": "MY330/88", "conditions": "14 d", "value": ">125 µM"}
{"smiles": "N/C(=N\\N=C\\c1ccccc1)SCc1cccc(Cl)c1", "strain or isolate": "ATCC 25291", "read by": "broth dilution", "conditions": "14 d", "value": "16 µM"}
{"smiles": "CN1CCN(Cc2ccccc2NC(=O)c2ccc(Cl)cc2)CC1", "strain or isolate": "103317", "value": ">16 µg/mL"}
{"smiles": "N#Cc1ccc(NC(=O)c2cc(Br)ccc2O)cc1", "strain or isolate": "CNCTC MY330/88", "value": "8 µM"}
{"smiles": "CCOc1ccccc1NC(=O)OCCN(C)C", "strain or isolate": "MY330/88", "value": "1000 µM"}
{"smiles": "Cc1cccc(OC/C(N=Cc2ccncc2)=N\\NC(=O)c2ccncc2)c1", "strain or isolate": "ATCC 19421", "value": ">100 µg/mL"}
{"smiles": "CCCCCCCSc1ccnc(C(N)=S)c1", "strain or isolate": "80/72", "value": "60 µM"}
{"smiles": "Cc1ccc(C(=O)NCc2cccnc2)c(O)c1", "strain or isolate": "ATCC 25291", "conditions": "14 d", "value": "500 µM"}
{"smiles": "O=C(Nc1ccc([N+](=O)[O-])cc1)c1ccccc1O", "strain or isolate": "CNCTC MY330/88", "value": "31 µM"}
{"smiles": "CCOc1cccc(NC(=O)OCCN2CCCCC2)c1", "strain or isolate": "MY330/88", "value": "500 µM"}
{"smiles": "CCCCSc1nnnn1-c1ccc(C)c(C)c1", "strain or isolate": "80/72", "value": "125 µM"}
{"smiles": "Nc1ccc(Cl)cc1C(=O)Nc1ccc(Br)cc1", "strain or isolate": "MY330/88", "value": "31 µM"}
{"smiles": "CCCCCCCCCCCCSc1ccnc(C(N)=S)c1", "strain or isolate": "80/72", "value": "500 µM"}
{"smiles": "Nc1ccccc1C(=O)Nc1cccc(Cl)c1", "strain or isolate": "MY330/88", "value": ">500 µM"}
{"smiles": "NC(=O)c1ncc(C(N)=S)nc1Nc1ccc(O)cc1", "strain or isolate": "80/72", "value": "100 µg/mL"}
{"smiles": "N/C(COc1ccc([N+](=O)[O-])cc1)=N/NC(=O)c1ccncc1", "strain or isolate": "ATCC 19421", "value": ">100 µg/mL"}
{"smiles": "CCCCc1ccc(NC(=S)c2cccc(C)c2)cc1", "strain or isolate": "MY330/88", "value": "32 µM"}
{"smiles": "CCC(C)c1ccc(NC(=O)c2cc(Cl)ccc2N)cc1", "strain or isolate": "MY330/88", "value": "16 µM"}
{"smiles": "NC(=O)c1ncc(C(N)=S)nc1N1CCCC1", "strain or isolate": "80/72", "value": ">100 µg/mL"}
{"smiles": "COc1ccc(OC/C(N=Cc2ccncc2)=N\\NC(=O)c2ccncc2)cc1", "strain or isolate": "ATCC 19421", "value": ">100 µg/mL"}
{"smiles": "COc1cccc(C(=S)Nc2ccc(C(C)C)cc2)c1", "strain or isolate": "MY330/88", "value": "62.5 µM"}
{"smiles": "N/C(=N\\N=C\\c1ccccc1O)SCc1cccc(Cl)c1", "strain or isolate": "ATCC 25291", "read by": "broth dilution", "conditions": "21 d", "value": "125 µM"}
{"smiles": "CCSc1nnnn1-c1c(C)cc(C)cc1C", "strain or isolate": "80/72", "value": ">1000 µM"}
{"smiles": "C=C1C(=O)O[C@H]2[C@H]1CCC1(C)O[C@@H]1CC[C@@]1(C)O[C@@H]21", "value": "128 µg/mL"}
{"smiles": "S=c1[nH]c2ccccc2c(=S)n1-c1ccccc1", "strain or isolate": "330/88", "value": "64 µM"}
{"smiles": "CCN(CC)c1nc(C(N)=S)cnc1C(N)=O", "strain or isolate": "80/72", "value": ">100 µg/mL"}
{"smiles": "CCCCS/C(N)=N/N=C/c1ccc2ccccc2n1", "strain or isolate": "CNCTC MY80/72", "value": "63 µM"}
{"smiles": "CN1CCN(Cc2cccc(NC(=O)c3ccc(Cl)cc3)c2)CC1", "strain or isolate": "103317", "value": ">16 µg/mL"}
{"smiles": "N/C(COc1ccc(Cl)cc1)=N/NC(=O)c1ccncc1", "strain or isolate": "ATCC 19421", "value": ">100 µg/mL"}
{"smiles": "S=c1[nH]c2ccccc2c(=S)n1-c1ccc(Cl)cc1", "strain or isolate": "330/88", "value": "64 µM"}
{"smiles": "Cc1ccc(-n2nnnc2SC(C)C)cc1C", "strain or isolate": "80/72", "value": "250 µM"}
{"smiles": "Cc1cccc(C(=S)Nc2ccc(C(C)C)cc2)c1", "strain or isolate": "MY330/88", "value": "62.6 µM"}
{"smiles": "Cc1nc2ccc(Cl)cc2c(=S)n1-c1ccc(C(C)C)cc1", "strain or isolate": "MY330/88", "value": "31 µg/mL"}
{"smiles": "CCCCNc1nc(C(N)=S)cnc1C(N)=O", "strain or isolate": "80/72", "value": "100 µg/mL"}
{"smiles": "Cc1cccc(-n2nnnc2SC(C)C)c1", "strain or isolate": "80/72", "value": "500 µM"}
{"smiles": "O=C(Nc1cccc(CN2CCOCC2)c1)c1ccc(Cl)cc1", "strain or isolate": "103317", "value": ">16 µg/mL"}
{"smiles": "C[C@H](NC(=O)OCc1ccccc1)c1cnc(-c2ccccc2)[nH]1", "strain or isolate": "MY330/88", "conditions": "14 d", "value": "125 µM"}
{"smiles": "CCCCCCCCOc1cccc(NC(=O)OCCN(C)C)c1", "strain or isolate": "MY330/88", "value": "8 µM"}
{"smiles": "CCCCCCS/C(N)=N/N=C/c1ccc2ccccc2n1", "strain or isolate": "CNCTC MY80/72", "value": "63 µM"}
{"smiles": "CC(=O)Oc1c(Cl)cccc1C(=O)Nc1cccc(Cl)c1", "strain or isolate": "MY330/88", "value": "8 µg/mL"}
{"smiles": "CCCOc1ccc(NC(=S)Nc2ccc(OCCC)cc2)cc1", "strain or isolate": "724", "value": ">20 µg/mL"}
{"smiles": "S=c1[nH]c2ccccc2c(=S)n1-c1ccc(Cl)c(Cl)c1", "strain or isolate": "330/88", "value": "64 µM"}
{"smiles": "C[C@@H]1C(=O)O[C@H]2[C@H]1CCC1(C)O[C@@H]1CC[C@@]1(C)O[C@@H]21", "value": "128 µg/mL"}
{"smiles": "CCS/C(N)=N/N=C/c1ccc2cc(Cl)ccc2n1", "strain or isolate": "CNCTC D5/93", "value": "63 µM"}
{"smiles": "NC(=O)c1ncc(C(N)=S)nc1Nc1cccc(O)c1", "strain or isolate": "80/72", "value": "50 µg/mL"}
{"smiles": "Cc1ccc(OC/C(N)=N\\NC(=O)c2ccncc2)cc1", "strain or isolate": "ATCC 19421", "value": ">100 µg/mL"}
{"smiles": "CCC(C)S/C(N)=N/N=C/c1ccncc1", "strain or isolate": "CNCTC MY66/72", "value": "63 µM"}
{"smiles": "C=C1C(=O)O[C@H]2[C@H]1CC/C(C)=C/CC[C@@]1(C)O[C@@H]21", "value": "64 µg/mL"}
{"smiles": "Nc1ccccc1C(=O)Nc1cccc(F)c1", "strain or isolate": "MY330/88", "value": "500 µM"}
{"smiles": "CCCCOc1ccccc1NC(=O)OCC[NH+]1CCCC1", "strain or isolate": "MY330/88", "value": "250 µM"}
{"smiles": "CCCCCCCCCCCCCCCCCCNC(=S)NCCCC(=O)OC", "strain or isolate": "724", "value": ">20 µg/mL"}
{"smiles": "O=C(/C=C/c1ccccc1)Nc1ccc(CN2CCOCC2)cc1", "strain or isolate": "103317", "value": "8 µg/mL"}
{"smiles": "CC(=O)Oc1cc(Cl)ccc1C(=O)Nc1ccc(Cl)c(Cl)c1", "strain or isolate": "MY330/88", "value": "8 µg/mL"}
{"smiles": "CCCCCCCS/C(N)=N/N=C/c1ccc2ccccc2n1", "strain or isolate": "CNCTC MY80/72", "value": "16 µM"}
{"smiles": "S=c1[nH]c2ccccc2c(=S)n1-c1ccc(Br)cc1", "strain or isolate": "330/88", "value": "32 µM"}
{"smiles": "O=C(NCc1ccccc1)c1ccc(Cl)cc1O", "strain or isolate": "ATCC 25291", "conditions": "21 d", "value": "62 µM"}
{"smiles": "O=C(OCc1ccccc1)N1CCC[C@H]1c1cnc(-c2ccccc2)[nH]1", "strain or isolate": "MY330/88", "conditions": "14 d", "value": ">250 µM"}
{"smiles": "CN1CCN(Cc2ccccc2NC(=O)/C=C/c2ccccc2)CC1", "strain or isolate": "103317", "value": ">16 µg/mL"}
{"smiles": "O=C(NCc1ccccn1)c1ccc(Cl)cc1O", "strain or isolate": "ATCC 25291", "conditions": "21 d", "value": "500 µM"}
{"smiles": "C=C1C(=O)O[C@H]2[C@H]1CC/C(C)=C/CC[C@@]1(C)O[C@@H]21", "value": "64 µg/mL"}
{"smiles": "COc1ccc(C(=O)NCc2cccnc2)c(O)c1", "strain or isolate": "ATCC 25291", "conditions": "21 d", "value": "1000 µM"}
{"smiles": "N/C(=N\\N=C\\c1ccccc1)SCc1ccc(Br)cc1", "strain or isolate": "ATCC 25291", "read by": "broth dilution", "conditions": "14 d", "value": "16 µM"}
{"smiles": "CCS/C(N)=N/N=C/c1nc2ccccc2n1C", "strain or isolate": "CNCTC D5/93", "value": "500 µM"}
{"smiles": "CCCCCSc1ccnc(C(N)=S)c1", "strain or isolate": "80/72", "value": "60 µM"}
{"smiles": "Cc1ccc(C(=O)Nc2ccc(Cl)c(Cl)c2)c(O)c1", "strain or isolate": "CNCTC MY330/88", "value": "8 µM"}
{"smiles": "CC1=CCC[C@@]2(C)O[C@H]2[C@H]2OC(=O)[C@@H](C)[C@@H]2CC1", "value": "128 µg/mL"}
{"smiles": "CN1CCN(Cc2cccc(NC(=O)c3ccc(-c4ccccc4)cc3)c2)CC1", "strain or isolate": "103317", "value": "8 µg/mL"}
{"smiles": "O=C(N/N=C(\\COc1ccc(Cl)cc1)N=Cc1cccnc1)c1ccncc1", "strain or isolate": "ATCC 19421", "value": ">100 µg/mL"}
{"smiles": "C=C1CC[C@@H](O)[C@]2(C)CC[C@H]3C(=C)C(=O)O[C@@H]3[C@@H]12", "value": ">128 µg/mL"}
{"smiles": "CC(C)c1ccc(NC(=S)c2cccc(Br)c2)cc1", "strain or isolate": "MY330/88", "value": "32 µM"}
{"smiles": "C[C@@H](NC(=O)OCc1ccccc1)c1cnc(-c2ccccc2)[nH]1", "strain or isolate": "MY330/88", "conditions": "14 d", "value": "250 µM"}
{"smiles": "S=c1oc2c(Cl)cc(Cl)cc2c(=S)n1-c1ccccc1", "strain or isolate": "330/88", "value": "62 µM"}
{"smiles": "O=C(Nc1ccc(Cn2ccnc2)cc1)c1ccc(Cl)cc1", "strain or isolate": "103317", "value": ">16 µg/mL"}
{"smiles": "Cc1ccc(CS/C(N)=N/N=C/c2ccccc2)cc1", "strain or isolate": "ATCC 25291", "read by": "broth dilution", "conditions": "21 d", "value": "32 µM"}
{"smiles": "CC(C)c1ccc(N2C(=S)c3cc(Cl)ccc3NC2(C)C)cc1", "strain or isolate": "MY330/88", "value": ">250 µg/mL"}
{"smiles": "O=C(N/N=C(\\COc1cccc(Cl)c1)N=Cc1ccncc1)c1ccncc1", "strain or isolate": "ATCC 19421", "value": ">100 µg/mL"}
{"smiles": "CC(=O)Oc1cc(Cl)ccc1C(=O)Nc1ccc(Br)cc1", "strain or isolate": "MY330/88", "value": "8 µg/mL"}
{"smiles": "COc1ccc(NC(=O)c2cc(Cl)ccc2O)cc1", "strain or isolate": "CNCTC MY330/88", "value": "31 µM"}
{"smiles": "COc1ccc(NC(=S)Nc2ccc(OC)cc2)cc1", "strain or isolate": "724", "value": ">20 µg/mL"}
{"smiles": "CCCNc1nc(C(N)=S)cnc1C(N)=O", "strain or isolate": "80/72", "value": ">100 µg/mL"}
{"smiles": "CCCCCCCCCC(O)CC(=O)CCc1ccc(O)c(OC)c1", "value": "25 µg/mL"}
{"smiles": "O=C(N/N=C(\\COc1ccc([N+](=O)[O-])cc1)N=Cc1cccnc1)c1ccncc1", "strain or isolate": "ATCC 19421", "value": ">100 µg/mL"}
{"smiles": "C[C@@H](NC(=O)OCc1ccccc1)c1cnc(-c2ccc([N+](=O)[O-])cc2)[nH]1", "strain or isolate": "MY330/88", "conditions": "14 d", "value": ">125 µM"}
{"smiles": "CCCCSc1nnnn1-c1ccc(C)cc1", "strain or isolate": "80/72", "value": "125 µM"}
{"smiles": "O=C(Nc1ccccc1)c1ccccc1O", "strain or isolate": "CNCTC MY330/88", "value": "62.5 µM"}
{"smiles": "Cc1ccc(-n2nnc3ccccc3c2=O)cc1", "strain or isolate": "MY330/88", "value": "125 µM"}

The last 9 rows once more:

smiles	strain or isolate	read by	conditions	value
COc1ccc(NC(=O)c2cc(Cl)ccc2O)cc1	CNCTC MY330/88	-	-	31 µM
COc1ccc(NC(=S)Nc2ccc(OC)cc2)cc1	724	-	-	>20 µg/mL
CCCNc1nc(C(N)=S)cnc1C(N)=O	80/72	-	-	>100 µg/mL
CCCCCCCCCC(O)CC(=O)CCc1ccc(O)c(OC)c1	-	-	-	25 µg/mL
O=C(N/N=C(\COc1ccc([N+](=O)[O-])cc1)N=Cc1cccnc1)c1ccncc1	ATCC 19421	-	-	>100 µg/mL
C[C@@H](NC(=O)OCc1ccccc1)c1cnc(-c2ccc([N+](=O)[O-])cc2)[nH]1	MY330/88	-	14 d	>125 µM
CCCCSc1nnnn1-c1ccc(C)cc1	80/72	-	-	125 µM
O=C(Nc1ccccc1)c1ccccc1O	CNCTC MY330/88	-	-	62.5 µM
Cc1ccc(-n2nnc3ccccc3c2=O)cc1	MY330/88	-	-	125 µM

An empty or dashed field is not shown.